We go through 1 compound from ChEMBL document CHEMBL2163206, “New nitrogen containing substituents at the indole-2-carboxamide yield high potent and broad spectrum indolylarylsulfone HIV-1 non-nucleoside reverse transcriptase inhibitors” (J Med Chem, 2012).

Assay [1] has as its target Human immunodeficiency virus type 1 reverse transcriptase (Human immunodeficiency virus 1, UniProt Q72547, L100I). Kind of assay: Inhibition of HIV1 reverse transcriptase L100I mutant RNA-dependent DNA polymerase activity using poly(rA)/oligo(dT)10:1 and [3H]-dTTP substrate.
Assay [2] addresses Human immunodeficiency virus type 1 reverse transcriptase (Human immunodeficiency virus 1, UniProt Q72547, K103N). Kind of assay: Inhibition of HIV1 reverse transcriptase K103N mutant RNA-dependent DNA polymerase activity using poly(rA)/oligo(dT)10:1 and [3H]-dTTP substrate.

As a reminder, the IC50 is the concentration at which inhibition is half-maximal. Read a high IC50 as a need for much substance.

For `Cc1cc(C#N)cc(C)c1Oc1nc(Nc2ccc(C#N)cc2)nc(N)c1Br` [ETRAVIRINE], the IC50 in assay [1] turned out to be 10 nM; in assay [2] it was 20 nM.
